Structures are written as SMILES.

The target of the assay is HIV-1 protease (Human immunodeficiency virus type 1 group M subtype B (isolate HXB2) (HIV-1), UniProt P04585). The assay can be described thus: Inhibition of HIV proteases (inhibition constants, method of Toth and Marshall). Conditions: read-out: Inhibition of HIV-1 (Ki). From the text:
Techniques for measurement of the ability of the compounds herein described to decrease the proteolytic activity of proteases encoded by HIV are well known to those skilled in the relevant art and any one or combination of such techniques can be used to measure the inhibition of protease activity of the compound herein described. One illustrative method is described by Toth and Marshall (Toth & Marshall, Int. J. Pep. Protein Res. (1990), 36, 544-550). The disclosure of the foregoing is incorporated herein in its entirety by reference. In addition, the entirety of the disclosures of each of the publications cited herein are also incorporated herein by reference.

For `COc1ccc(S(=O)(=O)N(CC(C)C)C[C@@H](O)[C@H](Cc2ccccc2)NC(=O)c2cccc(CN(C)Cc3csc(C)n3)c2)cc1`, the Ki was 0.2 µM.

Broadly, the Ki is a measure of affinity in units of concentration, obtained from inhibition or displacement.

Values taken from patent US9085571B2, “Nonpeptide HIV-1 protease inhibitors” (Purdue Research Foundation, priority 2008, dated 2015).
